Common to all, as to test: pseudovirus neutralization IC50; higher = weaker neutralization
Assay [1] addresses SARS-CoV-2 Omicron BA.1 spike pseudovirus. How it is done: (§1)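 Single-round VSV luciferase pseudovirus mixed with antibody dilutions for 1 h and put on Huh-7 cells for about a day; IC50 from the dose curve.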
Assay [2] deals with SARS-CoV-2 Omicron BA.2 spike pseudovirus. The method, then: as §1
The target in assay [3] is SARS-CoV-2 Omicron BA.2.75 spike pseudovirus. The method, then: as §1
In assay [4] the target is SARS-CoV-2 Omicron BA.5 spike pseudovirus. The method, then: as §1
Assay [5] addresses SARS-CoV-2 Omicron BQ.1.1 spike pseudovirus. How it is done: as §1
For assay [6], the target named is SARS-CoV-2 Omicron XBB spike pseudovirus. How it is done: as §1
The target in assay [7] is SARS-CoV-2 early D614G spike pseudovirus. How it is done: as §1

Human monoclonal antibodies against the spike receptor-binding domain (heavy:light variable regions). IC50 against pseudoviruses bearing the spike of naturally observed variants; lower = stronger; >10 µg/ml means not reached at the top dose. No active / inactive call. The stated detection limit is 0.0005 µg/ml; values near or below 0.001 µg/ml lie at the floor of the assay.

B1: BD57-080 (protein)
chain 1: QVQLQQSGPGLVKPSETLPLTCTVSGDSISSNSYYWGWIRQSPGKELQWIGTMNLRGGNYYNLSLKSRVTISVDTSKKQFSLKLRSVTAADTAVYYCARADLSDFHAFNIWGQGTMVTVSS
chain 2: DIQMTQSPSSLSASVGDRVTISCRASQSISDYLNWYQQKPGKAPKLLIYAASSLQSGVPSRFSGSGSGTDFTLTISSLQTEDFAAYYCQQSHSTPYTFGQGTKVEIK
Turning to B1, the “pseudovirus neutralization IC50” value in assay [1] was 1.13 µg/mL; in assay [2] it was 1.25 µg/mL; in assay [3], 1.29 µg/mL; in assay [4] it was above 10 µg/mL; in assay [5] it was above 10 µg/mL; in assay [6], above 10 µg/mL. The “pseudovirus neutralization IC50” value in assay [7] was 0.243 µg/mL.

B2: BD57-091 (protein)
chain 1: QVLLVESGGGVVPPGRSLRLSCAASGFMFSNYAMHWVRQAPGKGLEWVAVILHEGSNKLYADSVKGRFTISRDNSKNTLYLQMSSLRAEDTAVYYCARDHGTVTTLPDYWGQGTLVTVSS
chain 2: DIQMTQSPSSLSASVGDRVTITCRASQSINNYLNWFQQRPGKAPKLLIYDASSLQSGVPSRFSGSGSGTDFTLTISSLQPEDFATYYCQQSYNTPPWTFGQGTKVEIK
For B2, the “pseudovirus neutralization IC50” value in assay [1], in assay [2], in assay [3], in assay [4], in assay [5] and in assay [6] was above 10 µg/mL in each case. For the same molecule, the “pseudovirus neutralization IC50” value in assay [7] is above 10 µg/mL.

B3: BD57-074 (protein)
chain 1: QVLLVESGGGVVQPGRSLRLSCAASDFIFSNYAIHWVRQAPGKGLEWVAGVSSDGTIKYYADSVKGRFTISRDNSKKTLYLQMNSLRTEDTAVYHCAREALETTVTIFDYWGQGTLVTVSS
chain 2: DIQITQSPSSLSASVGDRVTITCRASQTISRYLNWYQQKPGKAPKLLIYAASTLQSGVPSRFSGSGSGTDFTLTISSLQPEDFATYFCQQSYSSPPITFGQGTRLEI
Take B3: the “pseudovirus neutralization IC50” value in assay [1], in assay [2], in assay [3], in assay [4], in assay [5] and in assay [6] was above 10 µg/mL in each case. In addition, the “pseudovirus neutralization IC50” value in assay [7] was above 10 µg/mL.

B4: BD57-089 (protein)
chain 1: QVQLVQSGAEVKKPGASVKVSCKASGYTFTSYYIYWVRQAPGQGLEWMGVFNPSGDGTSYAQKFQGRVTMTRDTSASTVYMELSSLRSEDTAVYYCARGLHGYSSGYIAHHAFDYWGQGTLVTVSS
chain 2: QSVLTQPPSVSGAPGQRVTISCTGSNSNIGTGYDVHWYQQLPGAAPRLLIYAYTNRPSGVPDRFSGSRSGTSASLAITGLQAEDEADYYCQSYDSSLAEDVVFGGGTRLTVL
In the case of B4, the “pseudovirus neutralization IC50” value in assay [1] is 0.00963 µg/mL; in assay [2], 0.00447 µg/mL; in assay [3], 0.0125 µg/mL; in assay [4] it was 0.00827 µg/mL; in assay [5], 0.893 µg/mL; in assay [6], above 10 µg/mL. Moreover, the “pseudovirus neutralization IC50” value in assay [7] came out at 0.048 µg/mL.

B5: BD57-071 (protein)
chain 1: QVQLVQSGAEVKKPGASVRVSCKASGYTFTSYYMHWVRQAPGQGLEWMGTIDPTGGSTSYAQKFQGRVTMTRDTSTSPVYMELSSLRSDDTAVYYCATSTVTTLFVDYWGQGTLVTVSS
chain 2: NFMLTQPHSVSESPGKTVTISCTRSSGSIANNYVQWYQQRPGSAPTTVIYEDNQRPSGVPDRFSGSIDSSSNSASLTISGLKTEDEADYYCQSYDTNINWVFGGGTKLTVL
Regarding B5, the “pseudovirus neutralization IC50” value in assay [1] amounted to 0.209 µg/mL; in assay [2], 0.333 µg/mL; in assay [3], 0.15 µg/mL; in assay [4], 0.0489 µg/mL; in assay [5], 4.74 µg/mL; in assay [6] it was 5.23 µg/mL. Also, in assay [7], the “pseudovirus neutralization IC50” value was 0.298 µg/mL.

B6: BD57-100 (protein)
chain 1: QVQLVQSGAEVKKPGASVQVSCKASGYTFTSYYIHWVRQAPGQGLEWMGTIDPSGGSTSYAQKFQGRVTMTRDTSTSPVYMELSSLRSDDTAVYYCATSTVTTLFVDYWGQGTLVTVSS
chain 2: NFMLTQPHSVSESPGKTVTISCTRSSGSIANNYVQWYQQRPGSAPTTVIYEDNQRPSGVPDRFSGSIDSSSNSASLTISGLKTEDEADYYCQSSDTNINWVFGGGTKLTVL
On to B6, for which the “pseudovirus neutralization IC50” value worked out at 0.638 µg/mL in assay [1]; 0.536 µg/mL in assay [2]; 0.613 µg/mL in assay [3]; 0.416 µg/mL in assay [4]; 2.81 µg/mL in assay [5]; 3.99 µg/mL in assay [6]. Further, the “pseudovirus neutralization IC50” value in assay [7] is 0.307 µg/mL.
